Results reported in PMC4671662, “Identification of New Molecular Entities (NMEs) as Potential Leads against Tuberculosis from Open Source Compound Repository” (PLoS ONE, 2015).

What was measured:
[1] = system: HepG2 (human hepatoma cells); test: Sulforhodamine B (SRB) cytotoxicity assay; format: cell-based; settings: therapeutic index, IC50/GI50 value against H37Rv
[2] = system: A549 (human lung epithelial cells); test: Sulforhodamine B (SRB) cytotoxicity assay; format: cell-based; settings: therapeutic index, IC50/GI50 value against H37Rv

Row | SMILES | HEPG2 TI [1] | A549 TI [2]
1 | COc1cc2c(cc1NC(=O)N1CCCCC1c1cccnc1)oc1ccccc12 (stereo not drawn) [Compound H15] | >50 | >50
2 | O=C(CC1(O)c2ccccc2-n2c1nc1ccccc1c2=O)c1ccccc1 (stereo not drawn) [Compound H26] | >50 | >50
3 | N#Cc1ccc(C(=O)CC2(O)c3ccccc3-n3c2nc2ccccc2c3=O)cc1 (stereo not drawn) [Compound H27] | >50 | >50
4 | O=C(CSc1nnc(COc2ccc(F)cc2)o1)OC1CCCCC1 [Compound H43] | >50 | >50
5 | Cc1nc(C)c(C(=O)N(c2cccc(C)c2C)C(C(=O)NC2CCCCC2)c2ccccc2)s1 (stereo not drawn) [Compound H85] | >50 | >50
6 | CCSc1nsc(NC(=O)Nc2ccc(C(F)(F)F)cc2)n1 [Compound H94] | >50 | >50
7 | Cc1ccc(-c2nc3ccccc3s2)cc1 [Compound H117] | >50 | >50
8 | Cc1ccc(C)c(Cn2nnc3c(O)nc(C4CCCN(C(=O)c5ccc(C(C)(C)C)cc5)C4)nc32)c1 (stereo not drawn) [Compound H126] | >50 | >50
9 | O=C(CSc1nnc2scc(-c3ccccc3)n12)Nc1ccc(N2CCCC2)cc1 [Compound H127] | >50 | >50
10 | Nc1ccc(C(=O)CSc2nnc3c(n2)CCCC3)cc1 [Compound H134] | >50 | >50
11 | Nc1ccc(C(=O)CC2(O)c3ccccc3-n3c2nc2ccccc2c3=O)cc1 (stereo not drawn) [Compound H136] | >50 | >50
12 | O=C(Cn1c(=O)n(Cc2ccc(F)cc2)c(=O)c2ccccc21)Nc1cc(F)ccc1F [Compound H137] | >50 | >50
